Results of unrelated studies side by side (data: NIAID ChemDB).

Shared fields: tests in culture; organism: Mycobacterium tuberculosis

MIC bound: limit read from a one-dose screen. A number after MIC or MFC names an inhibition level or a share of isolates. An empty or dashed field is not shown. Percent inhibition refers to the dose given; in toxicity tests it is the harm to the cells. ECn: concentration that inhibits the pathogen or its effect by n%. Two numbers with a dash give a range or band. Fold resistance has wild type as its base. Lines come from different laboratories, so protocols vary.

compound | measure | strain or isolate | changes | setting | tested at | read by | cells | result
O=C(Nc1ccc(C2=NCCN2)cc1)c1cccc(C(=O)Nc2ccc(C3=NCCN3)cc2)n1 | MIC bound | H37Rv | - | - | - | resazurin | - | >6.25 µg/mL
CC[C@@H](CO)NCCN[C@@H](CC)CO | MIC | 90-0216 (drug-susceptible) | - | - | - | - | - | 1 µg/mL
O=C(Nc1ccc(C(F)(F)F)cc1)c1cc(Br)ccc1OP(=O)(c1ccccc1)c1ccccc1 | MIC | My 331/88 | - | 7 d | - | - | - | 2 µM
O=c1oc2ccc(Br)cc2c(=S)n1-c1cccc(F)c1 | MIC | My 331/88 | - | 21 d | - | - | - | 2 µM
C/C(CC(=O)Nc1ccc(Cl)c(Cl)c1)=N\NC(=O)C[n+]1ccccc1.[Cl-] | inhibition | H37Rv | - | - | 12.5 µg/mL | BACTEC | - | 18%
CC1COc2c(N3CCN(C(=O)c4ccco4)CC3)c(F)c([N+](=O)[O-])c3c(=O)c(C(=O)O)cn1c23 | MIC99 | MDR-TB | - | - | - | agar | - | 1.6 µM
c1ccc(Nc2nc(-c3ccc4ccccc4n3)cs2)nc1 | MIC | H37Rv | - | - | - | visual reading | - | 1.5 µM
NCC[C@H](O)C(=O)N[C@@H]1C[C@H](N)[C@@H](O[C@H]2O[C@H](CN)[C@@H](O)[C@H](O)[C@H]2O)[C@H](O)[C@H]1O[C@H]1O[C@H](CO)[C@@H](O)[C@H](N)[C@H]1O | MIC | MDR21 | - | - | - | broth dilution / resazurin | - | 1 µg/mL
O=c1oc2ccc(F)cc2c(=S)n1-c1ccc(F)cc1 | MIC | My 331/88 | - | 21 d | - | - | - | 2 µM
CC1COc2c(N3CCN(Cc4ccc5c(c4)OCO5)CC3)c(F)c([N+](=O)[O-])c3c(=O)c(C(=O)O)cn1c23 | MIC99 | - | - | - | - | agar | - | 2.96 µM
COc1cc2c(cc1OC)[C@@]13CCN4C=C5CCO[C@H]6CC(=O)N2[C@H]1[C@H]6[C@H]5C[C@H]43 | MIC | H37Rv | - | - | - | BACTEC | - | ≥12.8 µg/mL
Cc1cc(-c2cc3c(cc2F)c(=O)c(C(=O)O)cn3C2CC2)cc(C)n1 | MBC | 1620-6 | - | - | - | - | - | 8 µg/mL
O=c1oc2ccc([N+](=O)[O-])cc2c(=O)n1-c1ccc(Br)cc1 | MIC | CNCTC MY331/88 | - | - | - | - | - | 31 µM
Cc1nn(C(=S)S)c(C)c1N=Nc1ccc(O)cc1 | MIC | H37Rv | - | - | - | BACTEC | - | 64 µg/mL
COc1cc(-n2cc(CSC3c4ccccc4-c4ccccc43)nn2)cc(OC)c1OC | MIC99 | Specimen 192 | - | - | - | broth dilution | - | 56.11 µM
CCCc1cc(=O)oc2c3c(c4c(c12)OC(C)(C)CC4)O[C@@H](C)[C@H](C)C3=O | MIC bound | H37Rv | - | - | - | BACTEC | - | >12.5 µg/mL
CCc1nc2ccccc2n1CCCCN1CCOCC1 | MIC99 | H37Rv | - | - | - | turbidity / fluorescence | - | >20 µM
O=c1c2[nH]c3ccccc3sc=2c(=O)c2ccccc12 | inhibition | H37Rv | - | - | 12.5 µg/mL | BACTEC | - | 93%
CO[C@H]1/C=C/O[C@@]2(C)Oc3c(C)c(O)c4c(O)c(c(/C=N/N5CCN(C)CC5)c(O)c4c3C2=O)NC(=O)/C(C)=C\C=C\[C@H](C)[C@H](O)[C@@H](C)[C@@H](O)[C@@H](C)[C@H](OC(C)=O)[C@@H]1C | MIC | 90-0241 (drug-susceptible) | - | - | - | - | - | 0.4 µg/mL
C[C@H]1COc2c(N3CCC(n4c(=O)[nH]c5cc(Cl)ccc54)CC3)c(F)c([N+](=O)[O-])c3c(=O)c(C(=O)O)cn1c23 | MIC99 | - | - | - | - | agar | - | 0.34 µM
O=C(CCC(F)(F)F)N1CCC(c2cncc(Cl)c2)CC1 | EC50 | H37Rv | - | - | - | fluorescence | THP-1 | <0.05 µM
C1CC[N+]2(CC1)CCCCC2.NC(=S)[S-] | MIC | INH-r | - | - | - | - | - | 0.8 µg/mL
CC(=O)Nc1ccc(C(=O)N/N=C/c2ccc(O)cc2)cc1 | MIC | - | - | - | - | - | - | >40 µg/mL
O=C1c2cc(Br)ccc2OP(=O)(c2ccccc2)N1c1ccc(C(F)(F)F)cc1 | MIC | My 331/88 | - | 14 d | - | - | - | 1 µM
Cc1c(C(=O)/C=C/c2ccccc2[N+](=O)[O-])[n+](=O)c2ccccc2n1[O-] | MIC | RMP-R | - | - | - | - | - | 3.1 µg/mL
NNC(=O)c1ccncc1 | MIC | 90-0240 (drug-susceptible) | - | - | - | - | - | 0.04 µg/mL
CCc1nc2ccccc2n1CCCCNc1ccc(OC)cc1 | MIC90 | H37Rv | Rv1339 V90M | - | - | turbidity / fluorescence | - | 3 µM
O=C(CCC(F)(F)F)N1CCC(c2cccc(Cl)n2)CC1 | EC50 | H37Rv | - | - | - | fluorescence | THP-1 | 0.05–0.25 µM
C/C(=C1/N=C(c2ccccc2)OC1=O)c1cccs1 | MIC bound | H37Rv | - | - | - | BACTEC | - | ≤12.5 µg/mL
COc1ccc(-n2c(=O)oc3ccc(Cl)cc3c2=O)cc1 | MIC | CNCTC MY331/88 | - | - | - | - | - | 62 µM
COc1ccc(C2c3cn[nH]c3CC3CCCCC32)cc1 | MIC bound | H37Rv | - | - | - | BACTEC | - | >12.5 µg/mL
c1ccc(Nc2nc(-c3cnccn3)cs2)nc1 | MIC | H37Rv | - | - | - | visual reading | - | 14 µM
CO[C@H]1/C=C/O[C@@]2(C)Oc3c(C)c(O)c4c(O)c(c(N5CCN(Cc6c(C)cc(C)cc6C)CC5)c(O)c4c3C2=O)NC(=O)/C(C)=C\C=C\[C@H](C)[C@H](O)[C@@H](C)[C@@H](O)[C@@H](C)[C@H](OC(C)=O)[C@@H]1C | MBC | 1620-4 | - | - | - | - | - | 0.12 µg/mL
O=[N+]([O-])c1ccccc1-n1cc(CS(=O)(=O)C2c3ccccc3-c3ccccc32)nn1 | MIC99 | Specimen 192 | - | - | - | broth dilution | - | >231 µM
CCc1nc2ccccc2n1CCCCOc1ccc(Cl)cc1 | MIC90 | H37Rv | Rv1339 V90M | - | - | turbidity / fluorescence | - | 13 µM
O=C1NN(C(=O)c2ccccc2)C(c2ccccc2[N+](=O)[O-])c2c1c1ccccc1n2C(=O)c1ccccc1 | inhibition | H37Rv | - | - | 6.25 µg/mL | resazurin | - | 37%
O=C(NNC(=O)c1cccc(Cl)c1)c1cccc(Cl)c1 | MIC | - | - | - | - | - | - | >200 µg/mL
O=C(Nc1ccc(Cl)c(Cl)c1)c1cc(Cl)ccc1OP(=O)(c1ccccc1)c1ccccc1 | MIC | My 331/88 | - | 14 d | - | - | - | 2 µM
COc1ccc2oc(=S)n(-c3ccc(C)cc3)c(=S)c2c1 | MIC | My 331/88 | - | 14 d | - | - | - | 8 µM
Cc1c([C@H](C)[C@@H]2NC[C@@H](C)C[C@H]2O)ccc2c1C[C@H]1[C@H]2CC=C2C[C@@H](O)CC[C@@]21C | inhibition | H37Rv | - | - | 128 µg/mL | BACTEC | - | 99%
O=C(CCC(F)(F)F)N1CCC(F)(c2ccnc(F)c2)CC1 | EC50 | H37Rv | - | - | - | fluorescence | THP-1 | <0.05 µM
Clc1cc(Cl)cc(-n2cc(CSC3c4ccccc4-c4ccccc43)nn2)c1 | MIC99 | H37Rv | - | - | - | broth dilution | - | 118 µM
CCc1nc2ccccc2n1CCCCNCc1ccccc1 | MIC99 | H37Rv | - | - | - | turbidity / fluorescence | - | >20 µM
CCOc1c(I)cc(C(=O)NN)cc1[N+](=O)[O-] | MIC | - | - | - | - | - | - | >40 µg/mL
O=C(Nc1nc(-c2ccccn2)cs1)c1cc([N+](=O)[O-])cc([N+](=O)[O-])c1 | MIC | H37Rv | - | - | - | visual reading | - | >20 µM
N[C@@H]1CONC1=O | MIC | 90-0145 (drug-susceptible) | - | - | - | - | - | 50 µg/mL
CCc1nc2ccccc2n1CCCCOc1cccc(C)c1 | fold resistance | H37Rv | QcrB T313I | - | - | turbidity / fluorescence | - | 70
CCC(=O)NNC(=O)c1ccccn1 | inhibition | H37Rv | - | - | 6.25 µg/mL | resazurin | - | -105%
O=C(N/N=C/C=C/c1ccccc1)c1ccccc1Cl | MIC | - | - | - | - | - | - | <40 µg/mL
CC1=C(C)C(=O)O[C@H]([C@](C)(O)[C@]2(O)CC[C@@]3(O)[C@@H]4C[C@H](O)[C@]5(O)C(O)C=CC(=O)[C@]5(C)[C@H]4CC[C@]23C)C1 | MIC | H37Rv | - | - | - | BACTEC | - | ≥12.5 µg/mL
O=C(CCC(F)(F)F)N1CCC(F)(c2cncc(Cl)c2)CC1 | EC50 | H37Rv | - | - | - | fluorescence | THP-1 | <0.05 µM
CC[C@@H](CO)NCCN[C@@H](CC)CO | MIC | Isolate I | - | - | - | - | - | >2.5 µg/mL
O=C1c2cccc(NCCNCCO)c2C(=O)c2cccc(NCCNCCO)c21 | MIC bound | H37Rv | - | - | - | BACTEC | - | >12.5 µg/mL
CC[C@H]1OC(=O)[C@H](C)[C@@H](O[C@H]2C[C@@](C)(OC)[C@@H](O)[C@H](C)O2)[C@H](C)[C@@H](O[C@@H]2O[C@H](C)C[C@H](N(C)C)[C@H]2O)[C@](C)(OC)C[C@@H](C)C(=O)[C@H](C)[C@@H](O)[C@]1(C)O | MIC | 90-0233 (INH SM-RS) | - | - | - | - | - | 5 µg/mL
O=c1oc2ccc(Cl)cc2c(=S)n1-c1ccc(F)cc1 | MIC | My 331/88 | - | 14 d | - | - | - | 2 µM
Cc1ccc2oc(=O)n(-c3cccc([N+](=O)[O-])c3)c(=O)c2c1 | MIC | CNCTC MY331/88 | - | - | - | - | - | 32 µM
CN(C)CCCc1cccc2c1oc1ccccc12 | MIC bound | H37Rv | - | - | - | BACTEC | - | >12.5 µg/mL
NC[C@H]1O[C@H](O[C@H]2[C@H](O)[C@@H](O[C@H]3O[C@H](CO)[C@@H](O)[C@H](N)[C@H]3O)[C@H](N)C[C@@H]2N)[C@H](O)[C@@H](O)[C@@H]1O | MIC | 90-0233 (INH SM-RS) | - | - | - | - | - | 4 µg/mL
COc1ccc2oc(=O)n(-c3ccc(Cl)c(Cl)c3)c(=S)c2c1 | MIC | My 331/88 | - | 14 d | - | - | - | 16 µM
C[C@H]1COc2c(N3CCC(n4c(=O)[nH]c5cc(Cl)ccc54)CC3)c(F)cc3c(=O)c(C(=O)O)cn1c23 | MIC99 | MDR-TB | - | - | - | agar | - | 0.76 µM
NNC(=O)c1ccncc1 | MIC | H37Rv | - | - | - | broth dilution | - | 0.66 µM
Cc1ncc(COP(=O)(O)O)c(C2N[C@H](C(=O)O)CS2)c1O | inhibition | H37Rv | - | - | 12.5 µg/mL | BACTEC | - | 39%
CC(C)(C)c1ccc(C(=O)Nc2nccc(-c3ccccn3)n2)cc1 | MIC | H37Rv | - | - | - | visual reading | - | >20 µM
CCCn1c2c(c(=O)n(CC)c1=O)S(=O)C(OCC)C(=O)N2 | MIC bound | H37Rv | - | - | - | resazurin | - | >6.25 µg/mL
O=C(CCC(F)(F)F)N1CCC(c2cncc(Cl)n2)CC1 | EC50 | H37Rv | - | - | - | fluorescence | THP-1 | >0.05 µM
O=C(Nc1ccc(C(F)(F)F)cc1)c1cc(Cl)ccc1OP(=O)(c1ccccc1)c1ccccc1 | MIC | 9449/2007 | - | 14 d | - | - | - | 1 µM
CO[C@H]1/C=C/O[C@@]2(C)Oc3c(C)c(O)c4c(O)c(c(/C=N/N5CCN(C)CC5)c(O)c4c3C2=O)NC(=O)/C(C)=C\C=C\[C@H](C)[C@H](O)[C@@H](C)[C@@H](O)[C@@H](C)[C@H](OC(C)=O)[C@@H]1C | MIC | Isolate I | - | - | - | - | - | >2 µg/mL
S=c1oc2ccc(Br)cc2c(=S)n1-c1ccccc1 | MIC | My 331/88 | - | 14 d | - | - | - | 2 µM
O=C(Nc1ccc(C(F)(F)F)cc1)c1cc(Br)ccc1OP(=O)(Oc1ccccc1)Oc1ccccc1 | MIC | My 331/88 | - | 14 d | - | - | - | 2 µM
CO[C@H]1/C=C/O[C@@]2(C)Oc3c(C)c(O)c4c(O)c(c5c(c4c3C2=O)NC2(CCN(CC(C)C)CC2)N=5)=NC(=O)/C(C)=C\C=C\[C@H](C)[C@H](O)[C@@H](C)[C@@H](O)[C@@H](C)[C@H](OC(C)=O)[C@@H]1C | MIC | Strain 73 74 (D516V) | - | - | - | - | - | 0.25 µg/mL
NNC(=O)c1ccncc1 | MIC | Isolate M | - | - | - | - | - | >0.2 µg/mL
O=C(NNS(=O)(=O)c1ccc([N+](=O)[O-])cc1)c1ccccc1 | MIC | - | - | - | - | - | - | 100 µg/mL
c1ccc(-c2csc(Nc3cccc4ccccc34)n2)nc1 | MIC | H37Rv | - | - | - | visual reading | - | 6.4 µM
O=C1c2cc(Cl)ccc2OP(=O)(c2ccccc2)N1c1ccc(C(F)(F)F)cc1 | MIC | Praha 4 | - | 21 d | - | - | - | 1 µM
CCOC(=O)c1ccc(-n2c(=O)oc3ccccc3c2=O)cc1 | MIC | CNCTC MY331/88 | - | - | - | - | - | 16 µM
CNP1(NC)=NP(N(C)C)(N(C)C)=NP(N(C)C)(N(C)C)=N1 | MIC | H37Rv | - | - | - | BACTEC | - | ≥128 µg/mL
O=c1oc2ccc(F)cc2c(=S)n1-c1ccc(Br)cc1 | MIC | My 331/88 | - | 14 d | - | - | - | 1 µM
CCc1nc2ccc(C)cc2n1CCCNc1ccc(Br)c(C)c1 | MIC90 | H37Rv | QcrB M342T | - | - | turbidity / fluorescence | - | >100 µM
Cc1ccc(-n2cc(CSC3c4ccccc4-c4ccccc43)nn2)cc1 | MIC99 | Specimen 192 | - | - | - | broth dilution | - | 135 µM
O=C(NC1=NC2C=CC([N+](=O)[O-])=CC2S1)C(=O)Nn1c(=S)[nH]c2ccccc2c1=O | MIC bound | H37Rv | - | - | - | BACTEC | - | >12.5 µg/mL
O=C(Nc1ccc(Br)cc1)c1cc(Cl)ccc1OP(=O)(Oc1ccccc1)Oc1ccccc1 | MIC | My 331/88 | - | 14 d | - | - | - | 8 µM